# Potato spindle tuber viroid, loop 15: variant abundance in plants

Source: Wu et al. 2024 (doi:10.1371/journal.ppat.1012142), supplementary data.

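Three N. benthamiana plants were inoculated with the whole mutant pool. Progeny were sequenced from the inoculated region (day 5), the margin of the inoculated leaf (day 10) and systemic leaves (day 12).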

Region: loop 15 of PSTVd (intermediate strain), upper and lower strand joined, each 5' to 3', the first 7 letters being the upper strand, closing pairs included. Wild type: GGAAACCGCUACUAC. Varied positions (N): GGAAACCGNNNNNNC.

Numbers give reads per thousand; 0 = not seen among the reads, higher = more abundant. Each value is the mean of three plants. "Pool" is the share in the plasmid pool used as inoculum, on the same scale. The inoculated region was read from the minus strand, the other sites from the plus strand. IR is the inoculated region, LM the leaf margin, Sys the systemic leaves. The authors trace changes outside the varied positions to PCR and sequencing errors or to mutation in the plant; presence does not show that a variant is infectious alone.

GGAAACCGAGCAUUC (pool 0.288): IR 0.312; LM 0.0121; Sys 0.00537.
GGAAACCGCAUUAUC (pool 0.240): IR 0.130; LM 0; Sys 0.
GGAAACCGGGGUGAC (pool 0.224): IR 0.108; LM 0.00742; Sys 0.
GGAAACCGAACAACC (pool 0.144): IR 0.106; LM 0.0121; Sys 0.
GGAAACCGUUCCUGC (pool 0.176): IR 0.333; LM 0.0726; Sys 0.0268.
GGAAACCGCGAUCUC (pool 0.176): IR 0.305; LM 0.154; Sys 0.0161.
GGAAACCGCGCUUCC (pool 0.128): IR 0.0567; LM 0.0175; Sys 0.
GGAAACCGUUGAGGC (pool 0.272): IR 0.0505; LM 0.0341; Sys 0.
GGAAACCGGCAUGAC (pool 0.144): IR 0.0923; LM 0.00742; Sys 0.
GGAAACCGGCUGAGC (pool 0.144): IR 0.0813; LM 0.0128; Sys 0.00537.
GGAAACCGGGUUCAC (pool 0.176): IR 0.127; LM 0; Sys 0.0107.
GGAAACCGAACGGGC (pool 0.288): IR 0.121; LM 0.00668; Sys 0.
GGAAACCGUGAGGUC (pool 0.288): IR 0.291; LM 0.0690; Sys 0.0699.
GGAAACCGGGAAGGC (pool 0.208): IR 0.0724; LM 0; Sys 0.0130.
GGAAACCGCGAAAUC (pool 0.224): IR 0.0922; LM 0.00668; Sys 0.
GGAAACCGUCUUCAC (pool 0.224): IR 0.130; LM 0; Sys 0.00504.
GGAAACCGACCGGAC (pool 0.288): IR 0.228; LM 0.0878; Sys 0.0215.
GGAAACCGGUGUUGC (pool 0.224): IR 0.0805; LM 0.0134; Sys 0.
GGAAACCGUGGUAAC (pool 0.256): IR 0.0280; LM 0.0195; Sys 0.
GGAAACCGAGAAUGC (pool 0.288): IR 0.385; LM 0.148; Sys 0.00537.
GGAAACCGCACACGC (pool 0.144): IR 0.0644; LM 0.0128; Sys 0.
GGAAACCGUUCGAUC (pool 0.192): IR 0.293; LM 0.143; Sys 0.0268.
GGAAACCGUUUCAGC (pool 0.224): IR 0.0976; LM 0.00539; Sys 0.
GGAAACCGUUCCUUC (pool 0.208): IR 0.278; LM 0.117; Sys 0.0515.
GGAAACCGCGGACAC (pool 0.352): IR 0.0818; LM 0.00668; Sys 0.00537.
GGAAACCGACGCCCC (pool 0.256): IR 0.129; LM 0.0256; Sys 0.00537.
GGAAACCGUAGGAAC (pool 0.192): IR 0.0900; LM 0.00742; Sys 0.
GGAAACCGUAUAAUC (pool 0.288): IR 0.230; LM 0.0134; Sys 0.
GGAAACCGCGCAGAC (pool 0.192): IR 0.0721; LM 0.0141; Sys 0.
GGAAACCGAGUGAAC (pool 0.160): IR 0.101; LM 0.00539; Sys 0.
GGAAACCGGGCCAAC (pool 0.224): IR 0.0613; LM 0; Sys 0.
GGAAACCGAGGAAUC (pool 0.240): IR 0.0867; LM 0.0241; Sys 0.
GGAAACCGGCCCGUC (pool 0.128): IR 0.148; LM 0; Sys 0.
GGAAACCGAGGUGUC (pool 0.400): IR 0.0590; LM 0.00668; Sys 0.
GGAAACCGGCUAAAC (pool 0.160): IR 0.113; LM 0; Sys 0.0161.
GGAAACCGUCAUUUC (pool 0.160): IR 0.370; LM 0.0993; Sys 0.0382.

4 of these entries, quoted again:

- GGAAACCGAACAACC (pool 0.144): IR 0.106; LM 0.0121; Sys 0
- GGAAACCGUUGAGGC (pool 0.272): IR 0.0505; LM 0.0341; Sys 0
- GGAAACCGCGAAAUC (pool 0.224): IR 0.0922; LM 0.00668; Sys 0
- GGAAACCGCAUUAUC (pool 0.240): IR 0.130; LM 0; Sys 0

With 43,870-66,106 reads a sample, very low values are single reads. Wild type was 33.9 per thousand in the pool and the most common sequence in every sample (inoculated region 202, 200, 159; leaf margin 724, 746, 710; systemic leaves 856, 883, 880).